From the NIST ThermoML archive (doi:10.1021/je8000427)

Settings: Liquid; for mass density / viscosity: 101.33 kPa; for viscosity: Capillary tube (Ostwald / Ubbelohde) method

ClP(Cl)Oc1ccccc1 [phenyl phosphorodichloridite]
Settings	mass density [kg/m3]	vapor or sublimation pressure [kPa]	viscosity [mPa·s]
293.27 K	1353.1	–	2.206
303.25 K	1344.2	–	1.835
313.2 K	1333	–	1.554
323.18 K	1320.4	–	1.338
333.06 K	1293.4	–	1.155
343.2 K	1279.7	–	1.016
353.2 K	1262.2	–	0.9
363.18 K	1247	–	0.8
363.25 K	–	1.47	–
368.85 K	–	1.93	–
373.06 K	1229.8	–	0.721
373.36 K	–	2.39	–
377.56 K	–	2.89	–
381.85 K	–	3.49	–
383.26 K	1214.1	–	0.655
386.24 K	–	4.22	–
390.85 K	–	5.11	–
393.26 K	1196.5	–	0.599
395.53 K	–	6.19	–
398.76 K	–	7.04	–
403.6 K	–	8.5	–
403.66 K	1177.7	–	0.542
408.48 K	–	10.23	–
412.85 K	–	12.02	–
413.47 K	1161.2	–	0.501
417.95 K	–	14.44	–
422.05 K	–	16.67	–
423.25 K	1143.1	–	0.467
427.13 K	–	19.74	–
431.14 K	–	22.69	–
434.75 K	–	25.54	–
439.67 K	–	29.9	–
443.56 K	–	33.78	–
448.54 K	–	39.36	–
453.36 K	–	45.46	–
458.47 K	–	52.77	–
461.57 K	–	57.67	–
466.53 K	–	66.28	–
471.06 K	–	75.05	–
475.71 K	–	88.11	–
480.79 K	–	101.33	–
